Anti-infective test results gathered from many reports (values: NIAID ChemDB through PubChem).

All rows: growth or infection tests; species: HIV-1; method: p24; endpoint: EC50

An empty or dashed field is not shown. ECn: concentration that inhibits the pathogen or its effect by n%. Neighbouring rows are from separate reports.

SMILES,strain or isolate,cells,changes,setting,result
CCc1cc(NCc2nc3c(Cl)ccc(Cl)c3o2)c(=O)[nH]c1C,IIIB,H9,-,-,<0.2 µM
O=C(O)c1cn2c3c(c(N4CCN(c5ccccn5)CC4)c(F)cc3c1=O)OCC2CF,IIIB,MOLT-4/HIV-1(IIIB) + MOLT-4,-,chronic infection,0.85 µg/mL
Cc1cn([C@H]2C[C@H](N=[N+]=[N-])[C@@H](CO)O2)c(=O)[nH]c1=O,LAI,MT-2,RT-D67N K70R T215Y K219Q K65R,-,0.004 µM
O=c1[nH]cnc2c1ncn2[C@H]1CC[C@@H](CO)O1,-,PBMC,RT-L74V,-,2 µM
CC(C)(Cl)C(O)COc1c2ccoc2cc2oc(=O)ccc12,IIIB,H9,-,-,2.25 µg/mL
S=C(NCCc1ccccn1)Nc1ccc(Br)cn1,NRTI resistant (RT Y181C K103N) A17 variant,PBMC,RT-Y181C K103N,-,>100 µM
[Li+],GUN1,PBL,-,-,>1000 µg/mL
COc1ccc(CN(CCN2CCCCC2)CC2CCCN(C3CCCC3)C2)cc1O,NL4-3,PBMC,-,-,4.6 µM
Cc1c(O)cccc1C(=O)N[C@@H](CSc1ccccc1)[C@H](O)CN1C[C@H]2CCCC[C@H]2C[C@H]1C(=O)NC(C)(C)C,14a-Pre,PBMC,-,-,0.0491 µM
Cc1cn([C@H]2C=C[C@@H](CO)O2)c(=O)[nH]c1=O,MM,PBMC,MDR,-,0.09 µM
Cc1cn([C@H]2C[C@H](N=[N+]=[N-])[C@@H](CO)O2)c(=O)[nH]c1=O,-,PBMC,RT-T215Y K219Q,-,0.017 µM
Nc1nc(=O)n([C@@H]2CO[C@H](CO)S2)cc1F,HxB2D(RT-D67G),PBMC,RT-D67G,-,6.5 µM
Oc1ccccc1CN(CCN1CCCCC1)CC1CCCN(C2CCCC2)C1,NL4-3,PBMC,-,-,2.6 µM
C=CCN(C(=O)NCc1ccc(C(F)(F)F)cc1)C1CCN(C[C@H]2CN(C(=O)c3ccco3)C[C@]2(O)c2ccccc2)CC1,-,PBMC,-,-,>0.1 µM
CC(C)Nc1cccnc1N1CCN(C(=O)c2cc3cc(NS(C)(=O)=O)ccc3[nH]2)CC1,Clinical isolate,PBL,-,clinical isolate,0.04 µM
Nc1nccc2c1ncn2[C@@H]1O[C@H](CO)[C@@H](O)[C@H]1O,A012 PRE-AZT,PBL,-,-,0.144 µM
O=c1[nH]cnc2c1ncn2[C@H]1CC[C@@H](CO)O1,Subtype B isolate,PBMC,-,-,0.4 µM
C[C@H](Cn1cnc2c(N)ncnc21)OCP(=O)(O)O,P18 FDDA-resistant RT P119S V179D L214F,MT-2,RT-P119S V179D L214F,-,1.2 µM
CCc1cc(NCc2nc3c(C)ccc(C)c3o2)c(=O)[nH]c1C,IIIB,PBL,-,-,<0.1 µM
COC(=O)[C@H](C)NP(=O)(OC[C@H]1O[C@@H](n2cc(C)c(=O)[nH]c2=O)C[C@@H]1N=[N+]=[N-])Oc1ccc(Br)cc1,IIIB,PBMC,-,-,~0.001 µM
CCCCN1C(=O)C(CC2CCCCC2)NC(=O)C12CCN(Cc1ccc3c(c1)OCCO3)CC2,TM,PBMC,MDR,-,>1 µM
Nc1ccn([C@H]2CC[C@@H](CO)O2)c(=O)n1,HXB2D,PBMC,-,-,0.041 µM
Cc1cn([C@H]2C[C@H](N=[N+]=[N-])[C@@H](CO)O2)c(=O)[nH]c1=O,IIIB BCH-189-resistant (RT M184V),MT-4,RT-M184V,-,0.03 µM
C/C(=C(/CCOC(=O)C(C)C)SS/C(CCOC(=O)C(C)C)=C(\C)N(C=O)Cc1cnc(C)nc1N)N(C=O)Cc1cnc(C)nc1N,MN,H9/HIV-1(MN) + H9,-,-,<50 µM
C=CCN(C(=O)OCc1ccc2c(c1)OCO2)C1CCN(C[C@H]2CN(C(=O)C3CCCC3)C[C@]2(O)c2ccccc2)CC1,-,PBMC,-,-,>0.1 µM
O=Nc1c(-c2c(O)[nH]c3ccccc23)[nH]c2ccccc12,RT-M41L L74V V106A T215Y RTMDR,PBMC,-,-,<1 µM
CC1(C)O[C@@H]1COc1c2occc2cc2ccc(=O)oc12,IIIB,H9,-,-,7.29 µg/mL
C=CCN(C(=O)NCc1ccc(S(=O)(=O)N(C)C)cc1)C1CCN(C[C@H]2CN(C(=O)C3CCCC3)C[C@]2(O)c2ccccc2)CC1,-,PBMC,-,-,<0.005 µM
Nc1ccn([C@H]2CC[C@@H](CO)O2)c(=O)n1,HXB2D,MT-4,-,-,0.45 µM
COC(=O)[C@H](Cc1ccccc1)NP(=O)(O)OC[C@H]1C[C@@H](n2cnc3cnccc32)[C@H](O)[C@@H]1O,G910 AZT-resistant,PBL,-,-,10 µM
O=C(O)P(=O)(O)O,8681 CLADE D CLADE D,PBMC,-,-,17.1 µM
c1cc(CN2CCCNCCNCCCNCC2)ccc1CN1CCCNCCNCCCNCC1,JSL,PBMC,MDR,-,>1 µM
C=CCN(C(=O)Cc1ccc(S(C)(=O)=O)cc1)C1CCN(C[C@H]2CN(C(=O)C3CCCC3)C[C@]2(O)c2ccccc2)CC1,-,PBMC,-,-,>0.1 µM
CCCCCCCCCCCCCCCCCCOC[C@@H](COP(=O)(O)C(=O)O)OCCCCCCCCCCCC,LAI,MT-2,-,-,59.7 µM
Nc1ncnc2c1ncn2CCOCP(=O)(O)O,LAI,MT-2,RT-K65R,-,>60 µM
CCCCCCCCCCCCCCCCCCOC[C@H](COP(=O)(O)C(=O)O)OCC,LAI,MT-2,-,-,0.39 µM
Cc1cn([C@H]2C[C@H](N=[N+]=[N-])[C@@H](COP(=O)(OCCSC(=O)C(C)C)OCCSC(=O)C(C)C)O2)c(=O)[nH]c1=O,LAV1-BRU,MOLT-4/8,-,-,0.035 µM
Cc1cn([C@H]2C[C@H](N=[N+]=[N-])[C@@H](CO)O2)c(=O)[nH]c1=O,IIIB/LAI,PBL,-,-,0.004 µM
C=CCN(C(=O)OCc1ccc(S(C)(=O)=O)cc1)C1CCN(C[C@H]2CN(C(=O)C3CCCC3)C[C@]2(O)c2ccccc2)CC1,-,PBMC,-,-,<0.005 µM
CC(=O)N[C@@H](CS)C(=O)O,IIIB,H9(HIV-1(IIIB)) + H9,-,-,>2500 µM
CC(=O)SCCOP(=O)(OCCSC(C)=O)OC[C@H]1O[C@@H](n2cc(C)c(=O)[nH]c2=O)C[C@@H]1N=[N+]=[N-],RF,MOLT-4/8,-,-,0.023 µM
Nc1nc2c(ncn2[C@H]2CO[C@@H](CO)O2)c(=O)[nH]1,LAI,MT-2,RT-D67N K70R T215Y K219Q L74V,-,1.04 µM
Nc1ccn([C@H]2CC[C@@H](CO)O2)c(=O)n1,Isolate 8093,PBMC,-,-,0.11 µM
CCCCCCCCCCCCCCCCCCOCC(COP(=O)(O)C(=O)O)(OC)OC,LAI,MT-2,-,-,0.49 µM
CC(C)(C)NC(=O)[C@H]1N(C(=O)[C@@H](O)[C@H](Cc2ccccc2)NC(=O)[C@H](CC(N)=O)NC(=O)COc2cccc3ccccc23)CSC1(C)C,AZT-insensitive,PBMC(PHA STIM.) + PBMC,-,-,0.17 µM
Nc1ncc(CN(CCN2CCCCC2)CC2CCCN(C3CCCC3)C2)cn1,NL4-3,PBMC,-,-,6.7 µM
CC(C)(C)NC(=O)[C@@H]1C[C@@H]2CCCC[C@@H]2CN1C[C@@H](O)[C@H](Cc1ccccc1)NC(=O)[C@H](CC(N)=O)NC(=O)c1ccc2ccccc2n1,GB8(PR-WT),CEM,-,-,0.008 µM
C=CCN(C(=O)NCc1ccc(S(=O)(=O)N(C)C)cc1)C1CC2CCC(C1)N2C[C@H]1CN(C(=O)c2ccc[nH]2)C[C@]1(O)c1cccc(F)c1,-,PBMC,-,-,<0.005 µM
CC(C)(C)NC(=O)[C@@H]1C[C@@H]2CCCC[C@@H]2CN1C[C@@H](O)[C@H](Cc1ccccc1)NC(=O)[C@H](CC(N)=O)NC(=O)c1ccc2ccccc2n1,MOKW,PBMC,-,-,0.004 µM
CC(C)Nc1cccnc1N1CCN(C(=O)c2cc3cc(NS(C)(=O)=O)ccc3[nH]2)CC1,NRTI resistant (RT Y181C) A17,PBMC,RT-Y181C,-,>100 µM
Nc1ccn([C@@H]2CS[C@H](CO)O2)c(=O)n1,Subtype B isolate,PBMC,-,-,0.01 µM
Nc1nc(=O)n([C@H]2CO[C@@H](CO)S2)cc1F,HXB2D (RT-M184V),PBMC,RT-M184V,-,2 µM
CC(C)[C@H](NC(=O)c1ccccn1)C(=O)N[C@@H](Cc1ccccc1)[C@H](O)[C@H](O)[C@H](Cc1ccccc1)NC(=O)[C@@H](NC(=O)c1ccccn1)C(C)C,P19 (PR-R8Q),MT-4,PR-R8Q,-,4 µM
Cc1cn([C@H]2C[C@H](N=[N+]=[N-])[C@@H](COP(=O)(OCCSC(=O)C(C)(C)C)OCCSC(=O)C(C)(C)C)O2)c(=O)[nH]c1=O,LAV1-BRU,MOLT-4/8,-,-,0.021 µM

For reference, 8 entries again:

SMILES,strain or isolate,cells,changes,setting,result
Nc1ccn([C@H]2CC[C@@H](CO)O2)c(=O)n1,Isolate 8093,PBMC,-,-,0.11 µM
C=CCN(C(=O)OCc1ccc2c(c1)OCO2)C1CCN(C[C@H]2CN(C(=O)C3CCCC3)C[C@]2(O)c2ccccc2)CC1,-,PBMC,-,-,>0.1 µM
CCc1cc(NCc2nc3c(C)ccc(C)c3o2)c(=O)[nH]c1C,IIIB,PBL,-,-,<0.1 µM
Nc1nc(=O)n([C@@H]2CO[C@H](CO)S2)cc1F,HxB2D(RT-D67G),PBMC,RT-D67G,-,6.5 µM
CC1(C)O[C@@H]1COc1c2occc2cc2ccc(=O)oc12,IIIB,H9,-,-,7.29 µg/mL
Cc1cn([C@H]2C[C@H](N=[N+]=[N-])[C@@H](CO)O2)c(=O)[nH]c1=O,IIIB/LAI,PBL,-,-,0.004 µM
CC(C)Nc1cccnc1N1CCN(C(=O)c2cc3cc(NS(C)(=O)=O)ccc3[nH]2)CC1,NRTI resistant (RT Y181C) A17,PBMC,RT-Y181C,-,>100 µM
Nc1nc(=O)n([C@H]2CO[C@@H](CO)S2)cc1F,HXB2D (RT-M184V),PBMC,RT-M184V,-,2 µM